PubChem BioAssay AID624099, ICCB-Longwood, 2012
Screen: 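Human genes that papillomavirus E2 requires to repress the HPV18 LCR promoter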 (primary screen). System: human C33A cervical carcinoma cells (HPV-negative) stably expressing BPV1 E2 and an HPV18 LCR luciferase reporter. Knock-down reagent: siRNA pool against human genes, 40 nM. Time to read-out: 72 h. Read-out: 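Per-well luciferase luminescence, z-scored on each plate against the plate mean and SD with control wells left out, then averaged across three replicate plates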. Direction: mean z-score and z-score: higher = stronger reporter signal, weaker E2 silencing. Call rule: 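Mean z ≥ 2 together with z ≥ 2 in two or more of the three replicates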.
The deposit covers about 21,000 reagents; below is a random part of them. Over the whole deposit, 497 (2.4%) got an active call. 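Higher z means weaker E2 silencing; only reporter increases were scored, and knock-downs that hurt cell survival may mask genuine repressor factors.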 Entries without a mark were called inactive. No sequences are given here.

| gene | mean z-score | z-score, replicate A | z-score, replicate B | z-score, replicate C |
| --- | --- | --- | --- | --- |
| FERRY3 (FERRY endosomal RAB5 effector complex subunit 3) | 0.66 | 0.58 | 0.7 | 0.72 |
| ADRB3 (adrenoceptor beta 3) | -0.37 | -0.49 | 0 | -0.61 |
| TAF6L (TATA-box binding protein associated factor 6 like) | 2.65 (active) | 2.32 | 2.88 | 2.74 |
| LGI4 (leucine rich repeat LGI family member 4) | -2.06 | -2.1 | -2.02 | -2.07 |
| S100A2 (S100 calcium binding protein A2) | -0.27 | -0.2 | -0.11 | -0.49 |
| BUD31 (BUD31 spliceosome associated protein) | 1.51 | 1.4 | 1.45 | 1.69 |
| NUP43 (nucleoporin 43) | -1.74 | -1.79 | -1.59 | -1.85 |

Already shown: 2 of the entries above.
| gene | mean z-score | z-score, replicate A | z-score, replicate B | z-score, replicate C |
| --- | --- | --- | --- | --- |
| BUD31 (BUD31 spliceosome associated protein) | 1.51 | 1.4 | 1.45 | 1.69 |
| NUP43 (nucleoporin 43) | -1.74 | -1.79 | -1.59 | -1.85 |

The results go on:
| gene | mean z-score | z-score, replicate A | z-score, replicate B | z-score, replicate C |
| --- | --- | --- | --- | --- |
| LOC389325 (retired record) | -0.13 | 0.2 | -0.09 | -0.49 |
| FRMPD3 (FERM and PDZ domain containing 3) | 0.16 | 0.16 | 0.21 | 0.1 |
| SLC35E4 | 0.07 | 0.22 | 0 | 0 |
| CROT (carnitine O-octanoyltransferase) | -0.01 | 0.21 | -0.03 | -0.21 |
| SOX21 (SRY-box transcription factor 21) | -1.25 | -1.1 | -1.38 | -1.28 |
| HCFC1 (host cell factor C1) | -0.91 | -1.08 | -0.78 | -0.86 |
| TLL1 (tolloid like 1) | 3.17 (active) | 3.19 | 3.09 | 3.24 |
| OSTCP1 (oligosaccharyltransferase complex subunit pseudogene 1) | -0.48 | -0.36 | -0.52 | -0.55 |
| DOK7 (docking protein 7) | 0.46 | 0.27 | 0.37 | 0.74 |
| MYBPH (myosin binding protein H) | 0.7 | 0.7 | 0.75 | 0.66 |
| VARS1 (valyl-tRNA synthetase 1) | -2.02 | -1.93 | -1.85 | -2.3 |
| LOC342659 (retired record) | -0.05 | -0.22 | -0.03 | 0.1 |
| ATG9A (autophagy related 9A) | -1.14 | -1.3 | -0.63 | -1.5 |
| SSBP1 (single stranded DNA binding protein 1) | 0.25 | 0.61 | 0.19 | -0.06 |
| LMNTD2 (lamin tail domain containing 2) | 0.23 | 0.29 | 0.26 | 0.15 |
| FCGRT (Fc gamma receptor and transporter) | -0.41 | -0.33 | -0.52 | -0.38 |
